Results from publication PMC2885016 (Nature, 2010).

Target: T1, human Cyclin T1 (1-266) (human, UniProt O60563 1-266)
T1 sequence (looked up): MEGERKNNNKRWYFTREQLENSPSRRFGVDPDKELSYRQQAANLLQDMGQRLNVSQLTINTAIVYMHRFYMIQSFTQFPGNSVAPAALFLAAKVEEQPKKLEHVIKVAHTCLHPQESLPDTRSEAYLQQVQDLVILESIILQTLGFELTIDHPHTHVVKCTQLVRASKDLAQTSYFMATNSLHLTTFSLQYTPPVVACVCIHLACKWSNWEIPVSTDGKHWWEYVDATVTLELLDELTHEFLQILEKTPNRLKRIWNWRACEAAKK
Experiment: SDS-PAGE of dissolved crystals

B1: human Cdk9 ([…]), C-terminally His-tagged (enzyme)
chain: not shown
modifications: phospho-Thr186
- stoichiometry N: 1
